± gives the uncertainty stated by the source.

2 molecules from the CheMixHub viscosity set can be followed below.

The conditions of the data set: 101 kPa.

Consider `Cn1cc[n+](CCCC#N)c1.O=S(=O)(F)[N-]S(=O)(=O)F`, for which the viscosity turned out to be 290.3 ± 17 mPa·s (293.15 K); 215.4 ± 11 mPa·s (298.15 K); 160.2 ± 6.6 mPa·s (303.15 K); 124.6 ± 4.3 mPa·s (308.15 K); 97.57 ± 2.8 mPa·s (313.15 K); 77.72 ± 1.9 mPa·s (318.15 K). The molecule also yielded a viscosity (323.15 K) of 63.27 ± 1.4 mPa·s.

With `CCC[N+]1(C)CCCC1.O=S(=O)(F)[N-]S(=O)(=O)F`, the viscosity by setting is: (298 K) 40.6 ± 1.2 mPa·s; (303 K) 34.8 ± 1 mPa·s; (308 K) 30 ± 0.9 mPa·s; (313 K) 26.1 ± 0.8 mPa·s; (318 K) 22.9 ± 0.7 mPa·s; (323 K) 20.2 ± 0.6 mPa·s.
